Anti-infective test results gathered from many reports (values: NIAID ChemDB through PubChem).

Common to all: tests in culture; species: Human cytomegalovirus; cells: HEL; endpoint: EC50

ECn: concentration that inhibits the pathogen or its effect by n%.

| smiles | strain | method | result |
|---|---|---|---|
| Nc1nc2c(ncn2CC(CO)OCP(=O)(O)O)c(=O)[nH]1 | 2 strains | plaque count | 0.15 µg/mL |
| Nc1ccnc2c1ncn2C1CC(O)C(CO)O1 | DAVIS | - | >100 µM |
| O=C(O)c1cc(O)ccc1O | DAVIS | cytopathic effect | 4.5 µg/mL |
| O=c1[nH]cnc2c1ncn2CC(CO)OCP(=O)(O)O | 2 strains | plaque count | 100 µg/mL |
| N[C@H](c1ccccc1)[C@H](N)c1ccccc1 | TOWNE | virus yield | >50 µM |
| COC(=O)c1cc(O)c(O)c(O)c1 | DAVIS | plaque count | 7.6 µg/mL |
| Cc1c(CC(=O)O)ccc(O)c1O | DAVIS | cytopathic effect | >25 µg/mL |
| C/C(=N\NC(=S)NNC(=S)c1ccc(Cl)cc1)C12CC3CC(CC(C3)C1)C2 | AD169 | cytopathic effect | >5 µg/mL |
| O=C(O)C[C@H](NCCN[C@@H](CC(=O)O)C(=O)O)C(=O)O | CMV5USA | plaque count | 11.7 µg/mL |
| Nc1nccc2c1ncn2C(C=O)OC(C=O)CO | DAVIS (20 PFU) | plaque count | 0.25 µg/mL |
| Nc1ncnc2c1ncn2C[C@@H](CO)OCP(=O)(O)O | 2 strains | plaque count | 0.15 µg/mL |
| CCCOC(=O)c1cc(O)c(O)c(O)c1 | AD169 | plaque count | 12 µg/mL |
| NC(=O)c1nc(F)c[nH]c1=O | - | plaque count | >100 µg/mL |
| Cc1cc(O)cc(O)c1CC(=O)O | AD169 | cytopathic effect | >25 µg/mL |
| Nc1ncnc2c1ncn2[C@@H]1C[C@H](CO)[C@@H](O)[C@H]1O | DAVIS (100 PFU) | cytopathic effect | >100 µg/mL |
| O=C(O)c1cc(O)c(O)c(O)c1 | DAVIS | cytopathic effect | 7 µg/mL |
| C(=C\c1ccccc1)/c1ccccc1 | TOWNE | virus yield | >50 µM |
| CCOC(=O)c1cc(O)c(O)c(O)c1 | AD169 | plaque count | 4.5 µg/mL |
| Nc1ncnc2c1ccn2[C@H]1C[C@H](O)[C@@H](COP(=O)(O)COC(=O)[C@@H](N)CC(=O)O)O1 | DAVIS | - | >100 µM |
| C(=C/c1ccccc1)/c1ccccc1 | TOWNE | virus yield | >50 µM |
| Nc1ccn(C[C@@H](CO)OCP(=O)(O)O)c(=O)n1 | 2 strains | plaque count | 0.08 µg/mL |
| CC/C(=C(/CC)c1ccc(O)cc1)c1ccc(O)cc1 | TOWNE | virus yield | >30 µM |
| CC(C)(C)C(=O)OCOC(=O)CN(CC(=O)OCOC(=O)C(C)(C)C)P(=O)(OC[C@H]1O[C@@H](n2cnc3c(N)ccnc32)C[C@@H]1O)Oc1ccccc1 | AD169 | - | >20 µM |
| Nc1ncnc2c1ncn2C[C@H]1COP(=O)(O)CO1 | 2 strains | plaque count | 0.1 µg/mL |
| C(=C\c1ccncc1)/c1ccncc1 | TOWNE | virus yield | >50 µM |
| Nc1nc2c(ncn2[C@H]2C=C[C@@H](CO)CC2)c(=O)[nH]1 | U 9070 | plaque count | 0.4 µg/mL |
| CC(C)NCC(O)c1ccc(O)c(O)c1 | AD169 | plaque count | 81 µg/mL |
| Nc1nc2c(ncn2[C@@H]2C=C[C@H](CO)CC2)c(=O)[nH]1 | AD169 | plaque count | 0.47 µg/mL |
| O=c1[nH]cccc1O | DAVIS | plaque count | >200 µg/mL |
| Nc1nccc2c1ncn2[C@H]1C[C@H](O)[C@@H](CO)O1 | DAVIS | - | >100 µM |
| NCC(O)c1ccc(O)c(O)c1 | AD169 | plaque count | 57 µg/mL |
| Nc1ncnc2c1ncn2[C@@H]1C=C[C@@H](O)[C@H]1O | AD-169 (20 PFU) | plaque count | 2.5 µg/mL |
| Cc1cc(=O)oc2cc(O)c(O)cc12 | DAVIS | plaque count | 9.5 µg/mL |
| Nc1nc(N)c2ncn(CCOCP(=O)(O)O)c2n1 | 2 strains | plaque count | 10 µg/mL |

Repeating the final 2 entries:

| smiles | strain | method | result |
|---|---|---|---|
| Cc1cc(=O)oc2cc(O)c(O)cc12 | DAVIS | plaque count | 9.5 µg/mL |
| Nc1nc(N)c2ncn(CCOCP(=O)(O)O)c2n1 | 2 strains | plaque count | 10 µg/mL |

Neighbouring rows are from separate reports. An empty or dashed field is not shown.